Measured values reported in PMC4125234, “Improving the Anti-Toxin Abilities of the CMG2-Fc Fusion Protein with the Aid of Computational Design” (2014).

Legend:
CMG2-Fc (E117Q) (human) = CMG2-Fc (E117Q) (human) (UniProt P58335); experiment: BLI
CMG2-Fc (Y158Q) (human) = CMG2-Fc (Y158Q) (human) (UniProt P58335); experiment: BLI

## protective antigen (PA) of anthrax toxin (natural protein)
CMG2-Fc (E117Q) (human)
  Kd: 0.2 nM
  koff: 3.93e-06 s⁻¹
  kon: 19400 M⁻¹ s⁻¹
CMG2-Fc (Y158Q) (human)
  Kd: 0.76 nM
  koff: 8.47e-06 s⁻¹
  kon: 11100 M⁻¹ s⁻¹
